# Laboratory results reported in US9028845B2, “Chimeric immunomodulatory compounds and methods of using the same-IV” (Dynavax Technologies Corporation, priority 2001, dated 2015).
# Marks after values point to notes of the source that are not given here.
# Tested on: hepatitis B surface antigen (HBsAg)
# Assay: Baboon anti-HBsAg antibody response to HBsAg co-administered with CIC (AUSAB EIA)
substance,measurement,setting,value
5′-TGACTGTGAACGTTCGAGATGA-3′ (SEQ ID NO: 2),"titers of anti-HBsAg antibodies compared to HBsAg alone, in words",20 μg HBsAg + 1000 μg test compound IM at 0 and 2 months,increased titers of anti-HBsAg antibodies
same,"Anti-HBsAg (mIU/ml) post-first, Mean","group mean, post-first immunization, 20 ug HBsAg, with 1000 ug P-6 or CIC where given",7 mIU/ml
same,"Anti-HBsAg (mIU/ml) post-second, Mean","group mean, post-second immunization, 20 ug HBsAg, with 1000 ug P-6 or CIC where given",2200* mIU/ml
